Converted amounts (≈) assume the structure as drawn.
Test system: Pseudomonas aeruginosa
Experiment: Antibacterial activity against Pseudomonas aeruginosa PAO397 [PAO1 d(mexAB-oprM) d(mexCD-oprJ) d(mexEF-oprN) d(mexJKL) d(mexXY) d(opmH)] (CO-ADD:GN_211); MIC in CAMBH media using NBS plates, by OD(600)
Format: functional
Conditions: ASSAY_TEST Inhibition of Bacterial Growth, detection method Absorption (OD600), MEDIA CAMHB, plate type 384well, CORNING #3640, time 18 hr

Structure (SMILES)	MIC
CCN(CC)CCn1c(=N)n(CC(O)COc2ccc(Cl)cc2Cl)c2ccccc21 (configuration not stated)	> 20 µM
N=c1n(CCN2CCCCC2)c2ccccc2n1CC(O)COc1ccc(Cl)cc1Cl (configuration not stated)	20 µM (≈ 9.27 µg/mL)
